This is an account of results in publication PMC4253628, “Antiviral effects against EV71 of pimprinine and its derivatives isolated from Streptomyces sp” (Virology Journal, 2014).

For series [1], the system named is CVB3. Briefly: Inhibition of CVB3-induced CPE in Hep-2 cells. The conditions noted are these: from Table 2.
In series [2] the test system is ADV-7. Briefly: Inhibition of ADV-7-induced CPE in HeLa cells. The settings on record: from Table 2.

As to `CCCc1ncc(-c2c[nH]c3ccccc23)o1` [WS-30581 A], the “fold more active than ribavirin against CVB3” value in series [1] is “approximately 7 fold”. In series [2], the “fold more active than ribavirin against ADV-7” value is “approximately 7 fold”.
Take `CCCCc1ncc(-c2c[nH]c3ccccc23)o1` [WS-30581 B]: the “fold more active than ribavirin against CVB3” value in series [1] is “approximately 7 fold”. Moreover, the “fold more active than ribavirin against ADV-7” value in series [2] is recorded as “approximately 7 fold”.
